# Earlier results, collected in publication PMC6086316.
# Biological target: IL-1β (Homo sapiens) (UniProt P01584)
# Details: cited from earlier work
substance,measurement,value
Caf1A (from UniProt P26949),Kd,0.14 nM
